Anti-infective test results gathered from many reports (values: NIAID ChemDB through PubChem).

Shared fields: whole-cell or culture tests; agent: Aspergillus fumigatus

Blank or dashed fields: not listed here. Zone: diameter of growth inhibition. Conditions beyond the fields shown may differ between rows. Percent inhibition refers to the dose given; in toxicity tests it is the harm to the cells. A number after MIC or MFC names an inhibition level or a share of isolates.

SMILES	measure	read by	tested at	strain or isolate	changes	result
COc1ccc(C(=O)Cn2cncn2)cc1	inhibition	broth dilution	80 µg/mL	-	-	48%
COc1cc(/C=N\N(C)Cc2cccc3ccccc23)cc(OC)c1OC	MIC	-	-	-	-	>64 µg/mL
Nc1ccccc1C(=O)Nc1ccc(CC(=O)O)cc1	zone	agar diffusion	25 µg/mL	RCMB 02003	-	11.2 mm
C[C@@H](c1ncncc1F)[C@](O)(Cn1cncn1)c1ccc(F)cc1F	MIC90	-	-	94 isolates	-	1 µg/mL
C[C@@H](c1ncncc1F)[C@](O)(Cn1cncn1)c1ccc(F)cc1F	Geometric mean MIC	-	-	35 isolates	-	0.67 µg/mL
Clc1ccccc1C(c1ccccc1)(c1ccccc1)n1ccnc1	zone	agar diffusion	25 µg/mL	RCMB 02003	-	18.3 mm
CCOC(=O)C[C@H](O)C[C@H](O)CC[C@@H]1[C@@H]2C(=CCC[C@@H]2C(=O)O[C@H](C)CC)C=C[C@@H]1C	zone	agar diffusion	0.5 mg/disc	-	-	0 mm
CN(C)/C=C/C(=O)c1nn(-c2ccccc2)cc1-c1ccc([N+](=O)[O-])cc1	zone	agar diffusion / agar	2.5 mg/mL	-	-	5 mm
CCCCCOc1ccc(-c2cc(-c3ccc(C(=O)N[C@H]4C[C@@H](O)[C@@H](O)NC(=O)[C@@H]5[C@@H](O)[C@@H](C)CN5C(=O)[C@H]([C@H](O)CC(N)=O)NC(=O)[C@H]([C@H](O)[C@@H](O)c5ccc(O)c(OS(=O)(=O)O)c5)NC(=O)[C@@H]5C[C@@H](O)CN5C(=O)[C@H]([C@@H](C)O)NC4=O)cc3)no2)cc1	MIC	-	-	-	-	0.0078 µg/mL
COc1ccc(C(O)Cn2ccnc2)cc1	inhibition	broth dilution	80 µg/mL	-	-	47%
Cc1ccc(-n2cc(-c3ccc([N+](=O)[O-])cc3)c(-c3ccnc4nncn34)n2)cc1	zone	agar diffusion / agar	5 mg/mL	-	-	18 mm
COc1ccc(NC(=O)c2ccccc2N)cc1	zone	agar diffusion	25 µg/mL	RCMB 02003	-	19.7 mm
C[C@@H]1[C@@H](COCC(=O)O)C[C@@H](O[C@H]2[C@H](O)[C@@H](N(Cc3ccc(Cl)cc3)CC(O)C[N+](C)(C)C)[C@H](O[C@H]3[C@H](O)[C@@H](N(Cc4ccc(Cl)cc4)CC(O)C[N+](C)(C)C)[C@H](C)O[C@@H]3COCC(=O)O)O[C@@H]2COCC(=O)O)[C@H](N(Cc2ccc(Cl)cc2)CC(O)C[N+](C)(C)C)[C@H]1O	zone	agar diffusion	1 mg/mL	RCMB 02568	-	16.3 mm
Cc1ccc(-n2cc(-c3ccc([N+](=O)[O-])cc3)c(-c3ccn[nH]3)n2)cc1	zone	agar diffusion / agar	5 mg/mL	-	-	9 mm
CCCCCOc1ccc(-c2ccc(-c3ccc(C(=O)N[C@H]4C[C@@H](O)[C@@H](O)NC(=O)[C@@H]5[C@@H](O)[C@@H](C)CN5C(=O)[C@H]([C@H](C)O)NC(=O)[C@H]([C@H](O)[C@@H](O)c5ccc(O)cc5)NC(=O)[C@@H]5C[C@@H](O)CN5C(=O)[C@H]([C@H](C)O)NC4=O)cc3)cc2)cc1	MFC90	-	-	35 isolates	-	1 µg/mL
CCCCCOc1ccc(-c2ccc(-c3ccc(C(=O)N[C@H]4C[C@@H](O)[C@@H](O)NC(=O)[C@@H]5[C@@H](O)[C@@H](C)CN5C(=O)[C@H]([C@H](C)O)NC(=O)[C@H]([C@H](O)[C@@H](O)c5ccc(O)cc5)NC(=O)[C@@H]5C[C@@H](O)CN5C(=O)[C@H]([C@H](C)O)NC4=O)cc3)cc2)cc1	MFC	-	-	92-270	-	>50 µg/mL
Clc1ccc2c(c1)nnc1nnnn12	inhibition	-	22 µg/mL	CCM F-373	-	95%
OO	MIC99	agar	-	AF293	-	8000 µM
Cc1ccc(-n2cc(-c3ccc([N+](=O)[O-])cc3)c(C(=O)/C=C/N(C)C)n2)cc1	zone	agar diffusion / agar	2.5 mg/mL	-	-	0 mm
CCCCCOc1ccc(-c2ccc(-c3ccc(C(=O)N[C@H]4C[C@@H](O)[C@@H](O)NC(=O)[C@@H]5[C@@H](O)[C@@H](C)CN5C(=O)[C@H]([C@H](C)O)NC(=O)[C@H]([C@H](O)[C@@H](O)c5ccc(O)cc5)NC(=O)[C@@H]5C[C@@H](O)CN5C(=O)[C@H]([C@H](C)O)NC4=O)cc3)cc2)cc1	MFC	-	-	Isolate AF210	-	0.03 µg/mL
COc1ccc(/C=N\N(C)Cc2cccc3ccsc23)cc1	MIC	-	-	-	-	>64 µg/mL
CC(=O)C1=NN(c2ccccc2)C2=Nc3nccc(-c4nn(-c5ccccc5)cc4-c4ccc([N+](=O)[O-])cc4)c3C(=O)C12	zone	agar diffusion / agar	5 mg/mL	-	-	20 mm
CN(Cc1cccc2ccccc12)/N=C\c1ccccc1F	MIC	-	-	-	-	>64 µg/mL
CCC(C)n1ncn(-c2ccc(N3CCN(c4ccc(OC[C@H]5CO[C@](Cn6cncn6)(c6ccc(Cl)cc6Cl)O5)cc4)CC3)cc2)c1=O	inhibition	broth dilution	2 µg/mL	AF293	mpkC	99.65%
CN(Cc1cccc2ccccc12)/N=C\c1ccc(C(C)(C)c2ccccc2)cc1	MIC	-	-	-	-	>64 µg/mL
O=C(Cn1ccnc1)c1ccc(F)cc1F	inhibition	broth dilution	80 µg/mL	-	-	45%
Cc1ccc(C(C)C)cc1O	MIC	-	-	CECT2071	-	0.16 µg/mL
CN(Cc1cccc2ccccc12)/N=C\c1cccc2ccccc12	MIC	-	-	-	-	>64 µg/mL

Repeating the final 2 entries:

| SMILES | measure | read by | tested at | strain or isolate | changes | result |
|---|---|---|---|---|---|---|
| Cc1ccc(C(C)C)cc1O | MIC | - | - | CECT2071 | - | 0.16 µg/mL |
| CN(Cc1cccc2ccccc12)/N=C\c1cccc2ccccc12 | MIC | - | - | - | - | >64 µg/mL |